Measured values from several laboratories, pooled; numbers as filed in NIAID ChemDB.

Shared fields: enzyme or target tests; species: Hepatitis C virus

An empty or dashed field is not shown. Percent inhibition refers to the dose given; in toxicity tests it is the harm to the cells. Lines come from different laboratories, so protocols vary. Two numbers with a dash give a range or band. ICn: concentration for n% inhibition.

{"structure": "Cc1ccc(S(=O)(=O)Nc2cc(-c3ccc(S(C)(=O)=O)cc3)sc2C(=O)O)c(C)c1", "protein": "NS3 ATPase", "measure": "IC50", "result": "<5 µM"}
{"structure": "CNC(=O)c1c(-c2ccc(F)cc2)oc2cc(N3CCOCC3)c(OCc3cc(C)on3)cc12", "protein": "Nonstructural protein 5B", "measure": "IC50", "result": "≤0.5 µM"}
{"structure": "Cc1ccc(C(=O)N(C)c2cc(-c3cccc(C(F)(F)F)c3)sc2C(=O)O)cc1", "protein": "NS3 ATPase", "measure": "IC50", "result": "<5 µM"}
{"structure": "O=C(O)c1cc2nc(-c3ccc(-c4cccc(OC(F)(F)F)c4)cc3)c(C3CCCCC3)c(=O)n2[nH]1", "protein": "RNA-dependent RNA polymerase", "measure": "IC50", "result": "1–10 µM"}
{"structure": "COCC(=O)N(Cc1ccc(F)cc1F)c1cc(-c2ccccc2)sc1C(=O)O", "protein": "NS3 ATPase", "measure": "IC50", "result": "5–20 µM"}
{"structure": "O=C(O)c1ccc(-c2ccc(Cl)cc2)c(-c2ccc3cc(-c4nc5cc(C(=O)O)ccc5n4C4CCCCC4)ccc3n2)c1", "protein": "NS5B polymerase", "dose": "33 µM", "measure": "inhibition", "result": "101%"}
{"structure": "O=C(Nc1ccsc1-c1nc(C(=O)O)c(O)c(=O)[nH]1)OCCCc1ccccc1", "protein": "HCV polymerase", "measure": "IC50", "result": "<25 µM"}
{"structure": "CSCC[C@H](NC(=O)c1cnn2c(C3CCCCC3)c(-c3ccc(F)cc3)cnc12)C(=O)O", "protein": "RNA-dependent RNA polymerase", "measure": "IC50", "result": "1–10 µM"}
{"structure": "O=C(O)c1ccc2c(c1)nc(-c1ccc3nc(-c4ccccc4-c4ccc(Cl)c(Cl)c4)ccc3c1)n2C1CCCCC1", "protein": "NS5B polymerase", "dose": "33 µM", "measure": "inhibition", "result": "99.42%"}
{"structure": "O=C(Nc1cccc(-c2nc(C(=O)O)c(O)c(=O)[nH]2)c1)Oc1ccccc1", "protein": "HCV polymerase", "measure": "IC50", "result": "<100 µM"}
{"structure": "O=C(O)c1cc2nc(-c3ccc(-c4ccccc4F)cc3)c(C3CCCCC3)c(=O)n2[nH]1", "protein": "RNA-dependent RNA polymerase", "measure": "IC50", "result": "1–10 µM"}
{"structure": "O=C(O)c1ccc2c(c1)nc(-c1ccc3nc(-c4ccc(N5CCOCC5)cc4)ccc3c1)n2C1CCCCC1", "protein": "NS5B polymerase", "dose": "33 µM", "measure": "inhibition", "result": "96.25%"}
{"structure": "CC(C)(C)NC(=O)Nc1cccc(-c2nc(C(=O)O)c(O)c(=O)[nH]2)c1", "protein": "HCV polymerase", "measure": "IC50", "result": "<100 µM"}
{"structure": "Cc1ccc(CN(C(=O)C2CCC2)c2cc(-c3ccccc3)sc2C(=O)O)cc1", "protein": "NS3 ATPase", "measure": "IC50", "result": "<5 µM"}
{"structure": "CCOCCOc1ccc(-c2ccc(Cl)cc2)c(-c2ccc3cc(-c4nc5cc(C(=O)O)ccc5n4C4CCCCC4)ccc3n2)c1", "protein": "NS5B polymerase", "dose": "100 µM", "measure": "inhibition", "result": "101%"}
{"structure": "CNC(=O)c1c(-c2ccc(F)cc2)oc2cc(-c3cncs3)c(OC(C)C)cc12", "protein": "Nonstructural protein 5B", "measure": "IC50", "result": "≤0.5 µM"}
{"structure": "O=C(Nc1ccccc1-c1nc(C(=O)O)c(O)c(=O)[nH]1)NC(c1ccccc1)c1ccccc1", "protein": "HCV polymerase", "measure": "IC50", "result": "<100 µM"}
{"structure": "CNC(=O)c1c(-c2ccc(F)cc2)oc2cc(C3CCCN3C(=O)C3CC3)c(OC(C)C)cc12", "protein": "Nonstructural protein 5B", "measure": "IC50", "result": "≤0.5 µM"}
{"structure": "O=C(O)c1cnn2c(-c3ccc(Oc4ccccc4)cc3)c(-c3ccccc3)cnc12", "protein": "RNA-dependent RNA polymerase", "measure": "IC50", "result": ">10 µM"}
{"structure": "O=C(Cn1nc(-c2ccccc2)cc1-c1ccccc1)Nc1ccsc1-c1nc(C(=O)O)c(O)c(=O)[nH]1", "protein": "HCV polymerase", "measure": "IC50", "result": "<25 µM"}
{"structure": "Cc1cc(-c2ccccc2)nc2ccc(-c3nc4cc(C(=O)O)ccc4n3C3CCCCC3)cc12", "protein": "NS5B polymerase", "dose": "100 µM", "measure": "inhibition", "result": "100%"}
{"structure": "O=C(O)c1sc(-c2ccccc2)cc1NC(=O)N1CCN(c2ccccc2Cl)CC1", "protein": "NS3 ATPase", "measure": "IC50", "result": "5–20 µM"}
{"structure": "CCc1cc2c(C(=O)NC)c(-c3ccc(F)cc3)oc2cc1N(CCO)S(C)(=O)=O", "protein": "Nonstructural protein 5B", "measure": "IC50", "result": "≤0.5 µM"}
{"structure": "CCCC(=O)N(Cc1ccc(C)cc1)c1cc(-c2ccccc2)sc1C(=O)O", "protein": "NS3 ATPase", "measure": "IC50", "result": "5–20 µM"}
{"structure": "NCCCCCC(=O)Nc1ccsc1-c1nc(C(=O)O)c(O)c(=O)[nH]1", "protein": "HCV polymerase", "measure": "IC50", "result": "<25 µM"}
{"structure": "CNC(=O)c1c(-c2ccc(F)cc2)oc2cc(OC)c(OC)cc12", "protein": "Nonstructural protein 5B", "measure": "IC50", "result": "≤0.5 µM"}
{"structure": "Cc1ccc(S(=O)(=O)Nc2cc(-c3ccccc3)sc2C(=O)NC2CCC2)cc1", "protein": "NS3 ATPase", "measure": "IC50", "result": "5–20 µM"}
{"structure": "CNC(=O)c1c(-c2ccc(F)cc2)oc2cc(NS(C)(=O)=O)c(-c3cccs3)cc12", "protein": "Nonstructural protein 5B", "measure": "IC50", "result": "≤0.5 µM"}
{"structure": "COc1ccc(COC(=O)Nc2ccsc2-c2nc(C(=O)O)c(O)c(=O)[nH]2)cc1", "protein": "HCV polymerase", "measure": "IC50", "result": "<25 µM"}
{"structure": "Cc1ccc(-c2nc3ccc(-c4nc5cc(C(=O)O)ccc5n4C4CCCCC4)cc3nc2-c2ccc(C)cc2)cc1", "protein": "NS5B polymerase", "dose": "33 µM", "measure": "inhibition", "result": "99.92%"}
{"structure": "O=C(NCc1ccccc1[N+](=O)[O-])Nc1ccccc1-c1nc(C(=O)O)c(O)c(=O)[nH]1", "protein": "HCV polymerase", "measure": "IC50", "result": "<100 µM"}
{"structure": "CNC(=O)c1cnn2c(C3CCCCC3)c(-c3ccc(OCc4ccccc4)cc3)cnc12", "protein": "RNA-dependent RNA polymerase", "measure": "IC50", "result": ">10 µM"}
{"structure": "O=C(O)c1sc(-c2ccccc2)cc1NS(=O)(=O)c1ccc(F)cc1C(F)(F)F", "protein": "NS3 ATPase", "measure": "IC50", "result": "5–20 µM"}

For reference, 2 entries again:

structure,protein,dose,measure,result
O=C(O)c1ccc2c(c1)nc(-c1ccc3nc(-c4ccccc4-c4ccc(Cl)c(Cl)c4)ccc3c1)n2C1CCCCC1,NS5B polymerase,33 µM,inhibition,99.42%
O=C(NCc1ccccc1[N+](=O)[O-])Nc1ccccc1-c1nc(C(=O)O)c(O)c(=O)[nH]1,HCV polymerase,-,IC50,<100 µM